{"source": "PubChem BioAssay AID651610", "about": "(Broad Institute, 2012)", "note": "The list shows a part of the results, in another mix than the full data. Calls of active or inactive are those of the source.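 How the source made its calls: active means mean replicate inhibition score of at least 50 and every replicate individually at or above 50; inconclusive means only one of the two criteria met; inactive means mean below 50 and not all replicates reaching 50.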"}
{"assay": "blockers of JRFL envelope-mediated fusion – HeLa-JRFL effector, CEM21 target cells, luciferase, primary screen (AID 651610);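 further: 0% = plate neutral controls and 100% = maraviroc near 300 nM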", "conditions": "HeLa-JRFL Env/CEM21 cell fusion, at 12.3 µM, active compounds read high"}
{"smiles": "CCOC(=O)N1CCC(Nc2ccc(F)cc2)CC1", "inhibition": "inactive: -25.7%"}
{"smiles": "COc1ccc(NC2CCN(CCc3ccccc3)CC2)c(OC)c1", "inhibition": "inactive: 14.4%"}
{"smiles": "O=C(NCC1(N2CCCCC2)CCCCC1)c1ccc(F)cc1", "inhibition": "inactive: 16.7%"}
{"smiles": "CCCCOc1ccc(C(=O)NCC2(N3CCOCC3)CCCCC2)cc1", "inhibition": "inactive: 4.29%"}
{"smiles": "CCCCn1nnnc1C(c1cc2ccccc2o1)N1CCC(n2c(=O)[nH]c3ccccc32)CC1", "note": "(stereo not given)", "inhibition": "inactive: -25.9%"}
{"smiles": "O=c1[nH]c2ccccc2n1C1CCN(C(c2ccccc2)c2nnnn2C2CCCCC2)CC1", "note": "(stereo not given)", "inhibition": "inactive: -50.6%"}
{"smiles": "COc1cc(C(=O)NCC2(N(C)C)CCCCC2)ccc1OC(F)F", "inhibition": "inactive: -4.22%"}
{"smiles": "CCOC(=O)N1CCC(Nc2cccc(C)c2)CC1", "inhibition": "inactive: -48%"}
{"smiles": "O=c1[nH]c2ccccc2n1C1CCN(C(c2cccc3ccccc23)c2nnnn2C2CCCC2)CC1", "note": "(stereo not given)", "inhibition": "inactive: -257%"}
{"smiles": "O=C(NCC1(N2CCCCC2)CCCCC1)c1ccc(OC(F)F)cc1", "inhibition": "inactive: 6.29%"}
{"smiles": "CC(C)(C)n1nnnc1C(c1ccccc1OC(F)(F)F)N1CCC(n2c(=O)[nH]c3ccccc32)CC1", "note": "(stereo not given)", "inhibition": "inactive: -112%"}
{"smiles": "O=c1[nH]c2ccccc2n1C1CCN(C(c2ccccc2OC(F)(F)F)c2nnnn2C2CCCC2)CC1", "note": "(stereo not given)", "inhibition": "inactive: -20%"}
{"smiles": "CCN1CCC(Nc2ccc(Cl)cc2)CC1", "inhibition": "inactive: -17.4%"}
{"smiles": "CSc1ccc(C(=O)NCC2(N3CCOCC3)CCCCC2)cc1", "inhibition": "inactive: 12.5%"}
{"smiles": "O=C(NCC1(N2CCCCC2)CCCCC1)c1cccc([N+](=O)[O-])c1", "inhibition": "inactive: -0.742%"}
{"smiles": "O=C(NCC1(N2CCCCC2)CCCCC1)c1cccc(C(F)(F)F)c1", "inhibition": "inactive: 3.19%"}
{"smiles": "COc1cc(C(=O)NCC2(N3CCCCC3)CCCCC2)ccc1OC(F)F", "inhibition": "inactive: 8.78%"}
{"smiles": "CCCCn1nnnc1C(c1cccc2ccccc12)N1CCC(n2c(=O)[nH]c3ccccc32)CC1", "note": "(stereo not given)", "inhibition": "inactive: -169%"}
{"smiles": "CC(C)c1ccc(C(=O)NCC2(N3CCOCC3)CCCCC2)cc1", "inhibition": "inactive: -14%"}
{"smiles": "COc1ccc(NC2CCN(C(=O)OC(C)(C)C)CC2)cc1", "inhibition": "inactive: -2.68%"}
{"smiles": "CN1CCN(CCOC(=O)C(O)(c2ccccc2)c2ccccc2)CC1", "inhibition": "inactive: 7.11%"}
{"smiles": "CC(C)c1ccc(NC2CCN(C(=O)OC(C)(C)C)CC2)cc1", "inhibition": "inactive: -0.686%"}
{"smiles": "CN(C)c1cccc(C(=O)NCC2(N3CCCCC3)CCCCC2)c1", "inhibition": "inactive: 7.28%"}
{"smiles": "COc1ccc(CN(CCCl)CCCl)cc1Cl", "inhibition": "inactive: 32.3%"}
{"smiles": "O=C(NCC1(N2CCOCC2)CCCCC1)c1cc(F)c(F)cc1Cl", "inhibition": "inactive: 4.5%"}
{"smiles": "COc1cc(OC)c(C(=O)NCC2(N(C)C)CCCCC2)cc1OC", "inhibition": "inactive: 4.29%"}
{"smiles": "CCCCn1nnnc1C(c1ccnc2ccccc12)N1CCC(n2c(=O)[nH]c3ccccc32)CC1", "note": "(stereo not given)", "inhibition": "inactive: 0.163%"}
{"smiles": "COc1ccc(C(c2nnnn2C2CCCC2)N2CCC(n3c(=O)[nH]c4ccccc43)CC2)cc1", "note": "(stereo not given)", "inhibition": "inactive: -20.2%"}
{"smiles": "CCCOc1ccc(C(=O)NCC2(N(C)C)CCCCC2)cc1OC", "inhibition": "inactive: 4.12%"}
{"smiles": "Cc1ccc(C(=O)NCC2(N(C)C)CCCCC2)o1", "inhibition": "inactive: -0.202%"}
